This note sets out measurements from PubChem BioAssay AID651602 (The Scripps Research Institute Molecular Screening Center, 2012).

The entries are a selection whose mix differs from that of the whole data set. Active and inactive are the calls of the source. Rule as the data show it: active = inhibition above about 11%; inactive = the rest.

The experiment can be described thus: growth loss of phage-infected E. coli, primary screen, RecBCD inhibitor project, absorbance, with phage, HTS (AID 651602). The conditions noted are these: at 11.9 µM, hits give high values.
The term inhibition denotes the relative decrease from the control value, in per cent. With `COc1cc(C2NCCC3(OCCO3)C2(C)C)cc(OC)c1OC` (centres undefined), the inhibition is inactive: 2.49%. With `CCOP(=O)(Nc1cccc2ccccc12)OCC` the figure was inactive: 0.71%; with `COc1cc(C(=O)NCC2(N3CCOCC3)CCCCC2)cc(Cl)c1OC(C)C`, inactive: 1.29%. With `O=[As](O)(O)c1cccnc1` the figure was inactive: 3.44%; with `CS(=O)(=O)c1ccc(Cl)c(NC(=O)COC(=O)C(O)(c2ccccc2)c2ccccc2)c1`, inactive: 1.65%. Regarding `O=C(OC1CN2CCC1CC2)c1ccc(Cl)cc1` (centres undefined), the inhibition was inactive: -0.54%. Turning to `O=[As](O)(c1cccc(O)c1)c1cccc(O)c1`, the inhibition is inactive: 1.38%.

In the case of `Cc1cccc(OCC(=O)OC2CN3CCC2CC3)c1` (centres undefined), the inhibition is inactive: 2.14%. As for `COc1ccccc1CNC(=O)COC(=O)C(O)(c1ccccc1)c1ccccc1`, the figure is inactive: -0.55%.

In the case of `CC1(CBr)Cn2c(nc3ccccc3c2=O)S1` (centres undefined), the inhibition is inactive: -0.37%. As for `CN(C(=O)Cc1ccc(Cl)c(Cl)c1)[C@@H]1CCCC[C@H]1N1CCCC1`, the figure is inactive: 4.7%. As for `CC(C)/C=N\N=C(\N)N[N+](=O)[O-]`, the figure is inactive: 3.01%; as for `CN(C(=O)Cc1ccc(Cl)c(Cl)c1)C1CCCC[C@@H]1N1CCCC1` (some centres undefined), inactive: 1.45%.

On to `CN(CCCl)Cc1cc(Cl)c(NC2=NCCN2)c(Cl)c1`, for which the inhibition was inactive: 3.03%.

`CCOP(=O)(Nc1ccc(C)cn1)OCC`: the inhibition was inactive: 0.08%. As for `CCC1=CC2Cc3nc4ccc(Cl)cc4c(N)c3C(C1)C2` (centres undefined), the figure is inactive: 1.5%; as for `O=P1(Nc2ccccn2)COc2ccccc2OC1`, inactive: 0.15%. `CCOP(=O)(NC(=NC(C)c1ccccc1)NC(C)c1ccccc1)OCC` (centres undefined): the inhibition is inactive: -0.6%. As for `Clc1n[nH]nc1-c1nn[nH][15n]1`, the figure is inactive: 0.78%. For the molecule `O=P1(N(CCCl)CCCl)NCCC(C(F)(F)F)O1` (centres undefined), the inhibition was inactive: 3.17%.

Turning to `CC(C)(C)C(=O)NC(Sc1ncccn1)C(Cl)(Cl)Cl` (centres undefined), the inhibition is inactive: 0%.

`O=P1(Nc2ncccn2)COc2ccccc2OC1`: the inhibition is inactive: 1.47%. Take `Cc1ccc(S(=O)(=O)N(CCCN)CCCc2c(C)nc(N)[nH]c2=O)cc1`: the inhibition is inactive: 2.68%. As for `NS(=O)(=O)c1cccc(NC(=O)COC(=O)C(O)(c2ccccc2)c2ccccc2)c1`, the figure is inactive: 0.3%; as for `O=P1(Nc2ccc(Br)cn2)COc2ccccc2OC1`, inactive: 1.4%. As for `Cc1ccc(OCC(=O)OC2CN3CCC2CC3)cc1` (centres undefined), the figure is inactive: 0.48%. As for `O=[As](O)(c1cccs1)c1cccs1`, the figure is inactive: 0.08%.

With `Nc1cccc([As](=O)(O)c2ccccc2)c1`, the inhibition is inactive: 2.3%.

On to `Cc1nn(-c2ccccc2)c2c1P(=O)(N1CCOCC1)N(C)C(c1ccccc1)=N2` (centres undefined), for which the inhibition was inactive: 1.25%. With `Cc1ccc(C(=O)OC2CN3CCC2CC3)cc1` (centres undefined), the inhibition was inactive: 3.99%. For the molecule `CC1CCC(C(C)C)C(OP(=O)(Nc2ccccn2)c2ccccc2)C1` (centres undefined), the inhibition was inactive: 2.39%. For the molecule `O=C(/C=C/c1ccccc1)OC1CN2CCC1CC2` (centres undefined), the inhibition is inactive: 4.07%.

For `CCCC1OP(=O)(Nc2ccccc2)OCC1CC` (centres undefined), the inhibition was inactive: 1.79%. As for `CN(C)C1(CNC(=O)c2ccc(S(C)(=O)=O)cc2)CCCCC1`, the figure is inactive: 0.91%; as for `CCOC(=O)Nc1cccc([As](=O)(O)O)c1`, inactive: 2.86%.

As for `O=[N+]([O-])c1ccc(Nc2ccc(Oc3ccc([N+](=O)[O-])cc3[N+](=O)[O-])cc2)c([N+](=O)[O-])c1`, the inhibition was inactive: -1.67%.

On to `Cc1cc(SC(NC=O)C(Cl)(Cl)Cl)ncn1` (centres undefined), for which the inhibition is inactive: 4.46%. On to `O=P(Nc1ccccn1)(c1cccc2ccccc12)c1cccc2ccccc12`, for which the inhibition was inactive: 2.14%. In the case of `CC1CCNP(=O)(N(CCCl)CCCl)O1` (centres undefined), the inhibition was inactive: -1.25%. As for `O=C(O)C(O)c1ccc(N(CCCl)CCCl)cc1` (centres undefined), the inhibition was inactive: 0.23%. With `CCOC(=O)Nc1ccc([As](=O)(O)O)c(O)c1` the figure was inactive: 3.75%; with `CCCCOc1ccc(C(=O)NCC2(N3CCCCC3)CCCCC2)cc1OC`, inactive: 2%. With `Cc1cc(SC(NC(=O)c2ccccc2)C(Cl)(Cl)Cl)nc(C(C)C)n1` (centres undefined) the figure was inactive: 1.48%; with `COP(=O)(OC)N1CC1c1ccccc1` (centres undefined), inactive: 1.32%; with `CCOC(=O)c1ccc(NC(=O)C(C)(CCl)SC)cc1` (centres undefined), inactive: 0.62%. As for `O=C(OC1CN2CCC1CC2)c1cccc([N+](=O)[O-])c1` (centres undefined), the figure is inactive: 1.28%; as for `CCC(C)N(CC(C)C)C(=S)SC(NC(C)=O)C(Cl)(Cl)Cl` (centres undefined), inactive: 9.58%. Take `COP1(=S)c2c(C)nn(CCC#N)c2N=C(c2ccc(F)cc2)N1C` (centres undefined): the inhibition was inactive: 0.93%.

Take `COC(=O)C1(C)COP(=O)(N2CCCC2)OC1` (centres undefined): the inhibition is inactive: 1.61%. Consider `O=C(COc1ccccc1)OC1CN2CCC1CC2` (centres undefined), for which the inhibition was inactive: 0%. Take `O=C(Nc1ccncc1[N+](=O)[O-])c1ccc([N+](=O)[O-])cc1[N+](=O)[O-]`: the inhibition was inactive: -1.35%. Regarding `O=C(O)C(=O)c1ccc(N(CCCl)CCCl)cc1`, the inhibition is inactive: 3.03%. Consider `COc1ccc(N/C(=N/P(=O)(N2CCOCC2)N2CCOCC2)N2CCOCC2)cc1`, for which the inhibition is inactive: 0.85%.

On to `O=[N+]([O-])c1cc(Oc2ccc([N+](=O)[O-])cc2C(F)(F)F)cc([N+](=O)[O-])c1`, for which the inhibition is inactive: 2.19%. With `O=C(OC1CN2CCC1CC2)C12CC3CC(CC(C3)C1)C2` (centres undefined) the figure was inactive: 2.36%.

`Cc1cc(=O)[nH]c(N[N+](=O)[O-])n1`: the inhibition was inactive: 5.7%. With `Cc1c2c(nc3ccccc13)SC(C(Cl)Cl)C2` (centres undefined) the figure was inactive: 4.94%; with `COc1ccc2nc(NP(=O)(c3ccccc3)c3ccccc3)sc2c1`, inactive: 2.73%. Take `COc1cc(I)ccc1[As](=O)(O)O`: the inhibition is inactive: 0.61%. As for `O=P1(N(CCCl)CCCl)Nc2ccccc2N1`, the figure is inactive: 0.08%. On to `O=P1(N(CCCl)CCCl)OCCCN1CCCl` (centres undefined), for which the inhibition was inactive: 2.73%. In the case of `CC(C)c1ccc(OP(=O)(Nc2ccccn2)Oc2ccccc2F)cc1` (centres undefined), the inhibition is inactive: 3.28%. Turning to `COC(=O)C1(C)COP(=O)(N2CCCCCC2)OC1` (centres undefined), the inhibition was inactive: 2.33%.

On to `ClCCSc1nnc(-c2cccnc2)o1`, for which the inhibition is inactive: 3.71%.

For `CCN(CC)C(=S)SC(NC=O)C(Cl)(Cl)Cl` (centres undefined), the inhibition is inactive: 3.02%. As to `O=C(OC1CN2CCC1CC2)c1cccc2[nH]cnc12` (centres undefined), the inhibition was inactive: -0.31%. Turning to `CC(C)NC(=O)NP(=O)(Oc1ccccc1)Oc1ccccc1`, the inhibition was inactive: 2.48%. On to `O=[As](O)(c1ccc(O)cc1)c1ccccc1O`, for which the inhibition was inactive: 2.31%. As for `C[As](=O)(O)c1cccc(C(=O)O)c1`, the inhibition was inactive: 0.8%. In the case of `COc1cc(C(=O)NCC2(N3CCOCC3)CCCCC2)ccc1OCC(C)C`, the inhibition is inactive: -0.31%. With `O=[N+]([O-])c1ccc(-c2cc([N+](=O)[O-])c(O)c([N+](=O)[O-])c2)cc1` the figure was inactive: 1.09%; with `Cc1ccc2nc3c(c(C)c2c1)CC(C(Cl)Cl)S3` (centres undefined), inactive: 1.84%; with `Cc1ccc(OP(=O)(Nc2ccc([N+](=O)[O-])cn2)Oc2ccc(C)cc2)cc1`, inactive: -2.15%.

For the molecule `[N-]=[N+]=NC1CCCCC1NC(=O)c1cc([N+](=O)[O-])cc([N+](=O)[O-])c1` (centres undefined), the inhibition was inactive: 2.45%.
